Pooled drug test results. Numbers come from NIAID ChemDB, via PubChem.

Common to all: whole-cell or culture tests; species: Mycobacterium tuberculosis

A number after MIC or MFC names an inhibition level or a share of isolates. MIC bound: limit read from a one-dose screen. ECn: concentration that inhibits the pathogen or its effect by n%. Inhibition is in % at the dose shown (toxicity tests: loss of growth or viability). Two numbers with a dash give a range or band. An empty or dashed field is not shown. Rows are shuffled and stem from different studies.

smiles | tested at | read-out | cell line | read by | strain | value
Cc1ccc2ncnc(NCCc3ccc(OC(F)(F)F)cc3)c2c1 |  | MIC50 |  | luminescence | H37Rv | >20 µM
O=C(CCC(F)(F)F)N1CCC(c2cnc(F)c(F)c2)CC1 |  | EC50 | THP-1 | fluorescence | H37Rv | <0.05 µM
C[C@H]1COc2c(N3CCc4ccccc4C3C(=O)NC(C)(C)C)c(F)cc3c(=O)c(C(=O)O)cn1c23 |  | MIC99 |  | agar | MDR-TB | 3.16 µM
Oc1ccc(CNCc2ccccc2)c2cccnc12 |  | MIC bound |  | resazurin | H37Rv | >6.25 µg/mL
C[C@H]1COc2c(N3CCC4(CC3)OCCO4)c(F)c(N)c3c(=O)c(C(=O)O)cn1c23 |  | MIC99 |  | agar |  | 3.72 µM
O=C(CCC(F)(F)F)N1CCC(F)(c2cncc(C(F)(F)F)c2)CC1 |  | EC50 | THP-1 | fluorescence | H37Rv | <0.05 µM
c1ccc2c(Nc3ccc(NCCN4CCOCC4)cc3)ncnc2c1 |  | MIC50 |  | luminescence | H37Rv | >10 µM
Cc1csc([C@](C)(O)c2nnc(Nc3ccn(Cc4c(F)cccc4F)n3)s2)n1 |  | MIC |  |  | G96V | >25 µg/mL
C[N+]12CN3CN(C1)S(=O)(=O)N(C3)C2.[I-] |  | MIC bound |  | BACTEC | H37Rv | >12.5 µg/mL
O=C(CCC(F)(F)F)N1CCC(c2ccc(F)cn2)CC1 |  | EC50 | THP-1 | fluorescence | H37Rv | 0.05–0.25 µM
Clc1ccc2ccc3ccc(Cl)nc3c2n1 |  | MIC bound |  | BACTEC | H37Rv | >12.5 µg/mL
C[C@H]1COc2c(N3CCC(n4c(=O)[nH]c5cc(Cl)ccc54)CC3)c(F)cc3c(=O)c(C(=O)O)cn1c23 |  | MIC99 |  | agar |  | 1.52 µM
CCCCCCCCc1ccc2c(c1)C(=O)c1nc3ccncc3c(=O)n1-2 |  | MIC |  |  | TN2557RFLF:P (MDR) | <0.015 µg/mL
Nc1ccc(C(=O)NC(CCC(=O)O)C(=O)O)c(Cl)c1 | 12.5 µg/mL | inhibition |  | BACTEC | H37Rv | 0%
C=CCOc1cc(O)cc(O)c1C(=O)[C@@H](C)CC |  | MIC |  | broth dilution | H37Rv | 100 µg/mL
O=C1c2cc(F)ccc2-n2c1nc1ccc(F)cc1c2=O |  | MIC |  |  | H37Rv | 0.13 µg/mL
FC(F)(F)c1ccc(Oc2ccc(Nc3ncnc4cccnc34)cc2)cc1 |  | MIC50 |  | luminescence | H37Rv | >10 µM
O=C1c2cc(OC(F)(F)F)ccc2-n2c1nc1ncccc1c2=O |  | MIC |  |  | H37Rv | 0.06 µg/mL
CCCCCCCCS(=O)(=O)CC(N)=O |  | MIC |  |  | 1T2768 | ≤6.25 µg/mL
COc1ccc2c(c1)C(=O)c1nc3ccccc3c(=O)n1-2 |  | MIC |  |  | H37Rv | 0.5 µg/mL
Fc1ccc2c(Nc3ccc(Oc4ccc(OC(F)(F)F)cc4)cc3)ncnc2c1 |  | MIC50 |  | luminescence | H37Rv | >20 µM
CCN(CCN(C)C)c1ccc2nc3n(c(=O)c2c1)-c1ccc(Cl)cc1C3=O |  | MIC |  |  | H37Rv | 0.13 µg/mL
CC1(C)S/C(=C\c2ccccc2)c2nc3ccccc3c(=O)n21 | 6.25 µg/mL | inhibition |  | resazurin | H37Rv | -12%
C1=C2CCCC/C=C\C=C\CCN3CC[C@@H]4[C@H](CCCCCC/C=C\C=C/CCN(C2)C[C@H]14)C3 |  | MIC |  |  | H37Rv (INH-resistant) | 3.13 µg/mL
CC1COc2c(N3CCN(C)C(c4ccccc4)C3)c(F)c([N+](=O)[O-])c3c(=O)c(C(=O)O)cn1c23 |  | MIC99 |  | agar |  | 3.23 µM
O=C(CCC(F)(F)F)N1CCC(c2cc(C(F)(F)F)ccn2)CC1 |  | EC50 | THP-1 | fluorescence | H37Rv | 0.05–0.25 µM
O=C(/N=C/c1cccc([N+](=O)[O-])c1)NCCCN1c2ccccc2Sc2ccccc21 | 25 µg/mL | inhibition |  | agar | H37Rv | 35%
O=C1c2cc(F)ccc2-n2c1nc1ccc(Cl)cc1c2=O |  | MIC |  |  | H37Rv | 0.06 µg/mL
FC(F)(F)Oc1ccc(CCNc2ncnc3cc(Br)ccc23)cc1 |  | MIC50 |  | luminescence | H37Rv | >20 µM
CCCCC(c1ccc2c(c1)C(=O)c1nc3ccncc3c(=O)n1-2)C(C)C |  | MIC |  |  | H37Rv | 0.06 µg/mL
C[C@]1(COc2ccc(N3CCC(Oc4ccc(OC(F)(F)F)cc4)CC3)cc2)Cn2cc([N+](=O)[O-])nc2O1 |  | MIC |  |  | Erdman | 0.012 µg/mL
CC1=C(N)C(=O)C2=C(C1=O)N1C[C@H]3[C@H](N3C)[C@]1(O)[C@@H]2COC(N)=O |  | MIC |  |  | PAS-R | 1.6 µg/mL
O=C(c1ccc(Oc2ccc(Cl)cc2)cc1)C(Cl)Cl |  | MIC |  |  | H37Rv | 6.25 µg/mL
CCN1C(=O)CC2CCCC1C2 |  | MIC |  | BACTEC | H37Rv | ≥12.5 µg/mL
O=C1c2cc(Cl)ccc2-n2c1nc1ccccc1c2=O |  | MIC |  |  | H37Rv | 0.06 µg/mL
OC1(c2cccnc2)C=CCC1 | 12.5 µg/mL | inhibition |  | BACTEC | H37Rv | 3%
C[C@H]1COc2c(N3CCC4(CC3)OCCO4)c(F)cc3c(=O)c(C(=O)O)cn1c23 |  | MIC99 |  | agar |  | 0.47 µM
CC(=O)NC1=NC(C)([N+](=O)[O-])CS1 | 6.25 µg/mL | inhibition |  | resazurin | H37Rv | -2%
C[C@H]1COc2c(N3CCC(O)(c4ccc(Cl)cc4)CC3)c(F)c([N+](=O)[O-])c3c(=O)c(C(=O)O)cn1c23 |  | MIC99 |  | agar | MDR-TB | 3.01 µM
CCCCCCCCCC1C/C(=N\OCc2ccccc2)c2c(O)cc(O)cc2O1 |  | MIC |  | broth dilution | H37Rv | 100 µg/mL
COc1cccc(/C=C2/SC(c3cccc(OC)c3)N(C(=O)NCCCN3c4ccccc4Sc4ccccc43)C2=O)c1 | 25 µg/mL | inhibition |  | agar | H37Rv | 30%
O=C(c1cccc(-c2ccccc2)c1)C(Cl)Cl |  | MIC |  |  | H37Rv | 12.5 µg/mL
FC(F)(F)c1ccc(Oc2ccc(Nc3ncnc4[nH]ncc34)cc2)cc1 |  | MIC50 |  | luminescence | H37Rv | >10 µM
CC(c1ccc(C(=O)CCl)cc1)c1ccc(C(=O)CCl)cc1 |  | MIC |  |  | H37Rv | 12.5 µg/mL
NCCCC(N)CC(=O)NCC1NC(=O)C(CO)NC(=O)C(NC(=O)CC(N)CCCN)CNC(=O)C(C2CCN=C(N)N2)NC(=O)/C(=C/NC(N)=O)NC1=O |  | MIC |  |  | Isolate VIM-R/4 | 20 µg/mL
Nc1cccc2c1Oc1ccccc1O2 |  | MIC bound |  | resazurin | H37Rv | >6.25 µg/mL
FC(F)(F)c1cccc(-c2ccc(Nc3ncnc4ccccc34)cc2)c1 |  | MIC50 |  | luminescence | H37Rv | >50 µM
Cc1ccc(Nc2cc(Cl)nc(N)n2)cc1Cl |  | MIC |  | BACTEC | H37Rv | 12.5 µg/mL
O=C1c2cc(F)ccc2-n2c1nc1ccncc1c2=O |  | MIC |  |  | H37Rv | 0.5 µg/mL
COc1ccc(-n2cc([N+](=O)[O-])nc2C)cc1 | 6.25 µg/mL | inhibition |  |  | H37Rv | 0%
c1ccc2c(Nc3ccc(N4CCCCC4)cc3)ncnc2c1 |  | MIC50 |  | luminescence | H37Rv | >50 µM
NNC(=O)c1ccncc1 |  | MIC |  |  | M103L | 0.03 µg/mL
CCC1Cn2cc([N+](=O)[O-])nc2O1 |  | MIC |  |  | 1 isolates ethambutol-resistant | 0.08 µg/mL
COc1ccc(CCNc2ncnc3ccsc23)cc1 |  | MIC50 |  | luminescence | H37Rv | >50 µM
CC(=O)OC(C)(C)c1ccc2c(c1)C(=O)C[C@@H]1[C@](C)(C#N)CCC[C@]21C |  | MIC bound |  | BACTEC | H37Rv | >12.5 µg/mL
O=[N+]([O-])c1ccc(-n2cc([N+](=O)[O-])cn2)cc1 | 6.25 µg/mL | inhibition |  |  | H37Rv | 11%
COc1ccc(-c2cc(NC(=O)c3cnccn3)c(=O)oc2C)cc1 | 6.25 µg/mL | inhibition |  | BACTEC | H37Rv | 35%
Cc1nc([N+](=O)[O-])cn1-c1ccc([N+](=O)[O-])cc1 |  | MIC |  |  | H37Rv | >6.25 µg/mL
Fc1ccc(N2CCN(c3ccc(Nc4ncnc5cc(F)ccc45)cc3)CC2)cc1 |  | MIC50 |  | luminescence | H37Rv | >10 µM
O=C(CCC(F)(F)F)N1CCC(c2cncc(F)c2)CC1 |  | EC50 | THP-1 | fluorescence | H37Rv | 0.05–0.25 µM
Nc1c(S(=O)(=O)[O-])cc2cc(S(=O)(=O)[O-])ccc2c1N=Nc1ccc(-c2ccc(N=Nc3c(N)c(S(=O)(=O)[O-])cc4cc(S(=O)(=O)[O-])ccc34)c(S(=O)(=O)[O-])c2)cc1.[Na+].[Na+].[Na+].[Na+].[Na+] |  | MIC bound |  | BACTEC | H37Rv | >12.5 µg/mL
CCCCCCCCCCCCCCCC(=O)NC1CNC(=O)C(C2CCN=C(N)N2)NC(=O)/C(=C/NC(N)=O)NC(=O)C(CO)NC(=O)C(CO)NC1=O |  | MIC |  |  | H37Rv | >40 µg/mL
FC(F)(F)c1cccc(CCNc2ncnc3ccsc23)c1 |  | MIC50 |  | luminescence | H37Rv | >50 µM
CN(C)c1ccc(O)c2c1C[C@H]1C[C@H]3[C@H](N(C)C)C(=O)C(C(N)=O)=C(O)[C@@]3(O)C(=O)C1=C2O |  | MBC |  |  |  | 64 µg/mL
FC(F)(F)c1ccc(Oc2ccc(Nc3ncnc4cc(C(F)(F)F)ccc34)cc2)cc1 |  | MIC50 |  | luminescence | H37Rv | >20 µM
O=C(CCl)c1ccc(Sc2ccccc2)cc1 |  | MIC |  |  | H37Rv | 25 µg/mL
COC(=O)C(=O)C(C)C(=O)C(C)c1nc(NC(=O)Nc2ccc(Cl)cc2)n[nH]1 |  | MIC bound |  | resazurin | H37Rv | >6.25 µg/mL
O=C(/N=C/c1ccc(Br)cc1)NCCCN1c2ccccc2Sc2ccccc21 | 25 µg/mL | inhibition |  | agar | H37Rv | 28%
CC(C)Oc1ccc(-c2ccc(Nc3ncnc4cc(F)ccc34)cc2)cc1 |  | MIC50 |  | luminescence | H37Rv | >10 µM
CC1COc2c(N3CCN(Cc4ccc5c(c4)OCO5)CC3)c(F)c([N+](=O)[O-])c3c(=O)c(C(=O)O)cn1c23 |  | MIC99 |  | agar | MDR-TB | 5.95 µM
COc1ccc(-n2c(N)c(C#N)c(C#N)c2-c2ccco2)cc1 | 6.25 µg/mL | inhibition |  | BACTEC | H37Rv | 26%
Clc1ccc(Oc2ccc(Nc3ncnc4ccccc34)cc2)cc1Cl |  | MIC50 |  | luminescence | H37Rv | >20 µM
CC(=O)O[C@H]1CC[C@]2(C)C3=C([C@@H](OO)C[C@H]2C1(C)C)[C@]1(C)CC[C@H](C(C)CCCC(C)C)[C@@]1(C)CC3 | 128 µg/mL | inhibition |  | BACTEC | H37Rv | 95%
COc1ccccc1/C=N/C(=O)NCCCN1c2ccccc2Sc2ccccc21 | 25 µg/mL | inhibition |  | agar | H37Rv | 23%
CCCCCCCCCCCCCCCCCCC(CC(=O)OC1C(C)OC(OC2C(C)C(=O)OC(CC)C(C)(O)C(O)C(C)C(=O)C(C)CC(C)(O)C(OC3OC(C)CC(N(C)C)C3O)C2C)CC1(C)OC)C(=O)O |  | MIC |  | BACTEC | H37Rv | ≥128 µg/mL
Fc1ccc2c(Nc3ccc(N4CCN(c5ccc(C(F)(F)F)cc5)CC4)cc3)ncnc2c1 |  | MIC50 |  | luminescence | H37Rv | >10 µM
CN[C@@H]1[C@H](O[C@H]2[C@H](O[C@H]3[C@H](O)[C@@H](O)[C@H](N=C(N)N)[C@@H](O)[C@@H]3N=C(N)N)O[C@@H](C)[C@]2(O)C=O)O[C@@H](CO)[C@H](O)[C@H]1O |  | MBC |  |  |  | 8 µg/mL
O=C(NCCCN1c2ccccc2Sc2ccccc21)N1C(=O)/C(=C\c2ccccc2[N+](=O)[O-])SC1c1ccccc1[N+](=O)[O-] | 50 µg/mL | inhibition |  | agar | H37Rv | 81%
COc1nc2ccc(Br)cc2cc1[C@@H](c1ccccc1)[C@@](O)(CCN(C)C)c1cccc2ccccc12 |  | MIC90 |  | fluorescence | H37Rv | 0.06 µg/mL
CC(C)=CCC/C(C)=C/CC/C(C)=C/CC/C(C)=C/C=C/C=C(\C)CC/C=C(\C)CC/C=C(\C)CCC=C(C)C | 12.5 µg/mL | inhibition |  | BACTEC | H37Rv | 1%
O=C(c1ccc(Cc2ccccc2)cc1)C(Br)Br |  | MIC |  |  | H37Rv | 12.5 µg/mL
CC1COc2c(N3CCN(C(c4ccccc4)c4ccc(Cl)cc4)CC3)c(F)c([N+](=O)[O-])c3c(=O)c(C(=O)O)cn1c23 |  | MIC99 |  | agar |  | 2.63 µM
O=C1OC2CCCCC2C2CC34CCCCC3C(C(=O)O4)C12 |  | MIC bound |  | BACTEC | H37Rv | >12.5 µg/mL
Fc1ccc2c(Nc3ccc(N4CCOCC4)c(F)c3)ncnc2c1 |  | MIC50 |  | luminescence | H37Rv | >50 µM